{"source": "patent US20220002699A1", "about": "(PLANET BIOTECHNOLOGY, published 2022)", "binders": {"B1": {"name": "ACE2-([…],H34S)-(GGGGS)2-Fc4 (Fc fusion)", "chain": "not shown"}}, "target": "SARS-CoV-2 Spike protein S1 domain (Wuhan, wild type) (SARS-CoV-2)", "note": "Where “and” joins values, the source holds several entries; their conditions need not be identical. Identical values can stand only once."}
{"binder": "B1", "values": [{"measurement": "EC50 (read off the curve)", "result": "~3 nM and ~4 nM"}]}
